Assays:
[1] = molecular target: His6-VraR (Staphylococcus aureus USA300 LAC) (UniProt Q2FX09); test: DNase I footprinting; settings: 6 uM VraR, 50 mM acetyl phosphate, 5 mM Mg2+, 10 mM Tris-HCl pH 7.5, 50 mM KCl, 1 mM DTT, 5 mM MgCl2, 0.05% NP-40, 2.5% glycerol, room temperature, 15 min, recombinant protein, residues 1-209, protein details: N-terminal His6 (pET28a), label: 5' FAM on reverse primer strand, probe letters rebuilt from the primers and the genome
[2] = molecular target: His6-VraR (Staphylococcus aureus USA300 LAC) (UniProt Q2FX09); test: EMSA; settings: 50 mM acetyl phosphate, 5 mM Mg2+, 10 mM Tris-HCl pH 7.5, 50 mM KCl, 1 mM DTT, 5 mM MgCl2, 0.05% NP-40, 2.5% glycerol, room temperature, 15 min, recombinant protein, residues 1-209, protein details: N-terminal His6 (pET28a), probe letters rebuilt from the primers and the genome

Protein sequences, listed by entry. Tags and fused reporters are not part of them. Lines headed by an entry give the natural chain unless they say otherwise; changes in a name come on top.
UniProt Q2FX09: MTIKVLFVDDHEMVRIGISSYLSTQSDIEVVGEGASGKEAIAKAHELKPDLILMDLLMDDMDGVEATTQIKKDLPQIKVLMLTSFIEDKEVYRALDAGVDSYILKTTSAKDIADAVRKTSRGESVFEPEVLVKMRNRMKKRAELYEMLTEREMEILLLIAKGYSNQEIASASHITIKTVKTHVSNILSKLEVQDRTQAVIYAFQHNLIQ

Sequence | binding result [1] | binding result [2]
AACCTATATTACCTCCTTTGCTACTCTATGGTTATATTATAAATAACATTTTTATGTGTGACATCAACCTTAAGTATCAACTTTTTATCAGACATAGAACGTATGATTTACTAAGACTATTTATGTATAAAAGTTCTAAATAAATATATATTTATAGAGTCGCCTGGCAGTCATTTGGGAAATATAACATATATGATTAGAGAGGCATCTATCGCAAAAGAATGATAATGATAGAGGTATTGAGCATATAGATGAGTTTAAGTTCATCTTGAAAATAAAGGGTTATTTAGTCATAGATGTAGATGTATAGGAAATATTTGTATGTATTGTTCGATATGTATGAAATTTTC (double strand) [FAM-vraX promoter] | binds | –
AACCTATATTACCTCCTTTGCTACTCTATGGTTATATTATAAATAACATTTTTATGTGTGACATCAACCTTAAGTATCAACTTTTTATCAGACATAGAACGTATGATTTACTAAGACTATTTATGTATAAAAGTTCTAAATAAATATATATTTATAGAGTCGCCTGGCAGTCATTTGGGAAATATAACATATATGATTAGAGAGGCATCTATCGCAAAAGAATGATAATGATAGAGGTATTGAGCATATAGATGAGTTTAAGTTCATCTTGAAAATAAAGGGTTATTTAGTCATAGATGTAGATGTATAGGAAATATTTGTATGTATTGTTCGATATGTATGAAATTTTC (double strand) [vraX-p] | – | binds
TATTACGCAAGTGTGCTGTATTCTAAAGTGCACTTGTGTTTTCTATTTTTTAATAAAACCTCAGCACATAATGAACAACTTTCTATTTTCTATATCACTTAAAACCATTTCCGAAATTAAACCTCAGCACATTCAAAGCCCCACTTTATTCTTAAAAATATTTTTTAACTCATATGTATTAAACCGCTTTCATTATAAAAAATATCTCTATATTTTATCTGTTTTTATTAATCGAAATAGCGTGATTTTGCGGTTTTAAGCCTTTTACTTCCTGAATAAATCTTTCAGCAAAATATTTATTTTATAAGTTGTAAAACTTACCTTTAAATTTAATTATAAATATAGATTTTAGTATTGCAATACATAATTCGTTATATTATGATGACTTTACAAATACATACAGGGGGTATTAAT (double strand) [FAM-spa promoter] | binds | –
TATTACGCAAGTGTGCTGTATTCTAAAGTGCACTTGTGTTTTCTATTTTTTAATAAAACCTCAGCACATAATGAACAACTTTCTATTTTCTATATCACTTAAAACCATTTCCGAAATTAAACCTCAGCACATTCAAAGCCCCACTTTATTCTTAAAAATATTTTTTAACTCATATGTATTAAACCGCTTTCATTATAAAAAATATCTCTATATTTTATCTGTTTTTATTAATCGAAATAGCGTGATTTTGCGGTTTTAAGCCTTTTACTTCCTGAATAAATCTTTCAGCAAAATATTTATTTTATAAGTTGTAAAACTTACCTTTAAATTTAATTATAAATATAGATTTTAGTATTGCAATACATAATTCGTTATATTATGATGACTTTACAAATACATACAGGGGGTATTAAT (double strand) [spa-p] | – | binds

From article PMC10032271
